Pooled drug test results. Numbers come from NIAID ChemDB, via PubChem.

Common to all: tests in culture; species: HIV-1

Conditions beyond the fields shown may differ between rows.

compound	conditions	strain	endpoint	changes	cell line	read by	result
CC(C)c1nc(CN(C)C(=O)N[C@H](C(=O)N[C@@H](Cc2ccccc2)C[C@H](O)[C@H](Cc2ccccc2)NC(=O)OCc2cncs2)C(C)C)cs1		LAI Laboratory isolate	EC50		PBMC	p24	0.04 µM
Cc1cn([C@H]2C=C[C@@H](CO)O2)c(=O)[nH]c1=O		A012B WT	EC50		MAGI (CCR5) + MAGI	β-galactosidase	0.33 µM
CC(C)(C)NC(=O)[C@@H]1C[C@@H]2CCCC[C@@H]2CN1C[C@@H](O)[C@H](Cc1ccccc1)NC(=O)[C@H](CC(N)=O)NC(=O)c1ccc2ccccc2n1		NL4-3	EC50	PR-M46I L63P	MT-4	p24	<0.025 µM
C#C[C@]1(CO)O[C@@H](n2cnc3c(N)nc(F)nc32)C[C@@H]1O		Clinical isolate	EC50	A114S/M184V	MT4-GFP	fluorescence	0.04014 µM
CC(=O)N1CCC(C(=O)N(CCCN2CCC(Cc3ccc(C(N)=O)cc3)CC2)c2ccc(C)c(Cl)c2)CC1		R5 subtype B_6 recombinant	EC50		U87 (CD4+ CCR5+) + U87	luciferase	0.007 µM
CC(C)Nc1cccnc1N1CCN(C(=O)c2cc3cc(NS(C)(=O)=O)ccc3[nH]2)CC1		B-1 (RT L100V K103R/K Y188H)	EC50	RT-L100V K103R/K Y188H	CEM	cytopathic effect	0.3 µg/mL
CC(C)=CCN1Cc2cc(Cl)cc3[nH]c(=S)n(c23)C[C@@H]1C		IIIB	EC50	RT-L100I	CEM	cytopathic effect	1.75 µg/mL
CC(C)CN(C[C@@H](O)[C@H](Cc1ccccc1)NC(=O)O[C@H]1CCOC1)S(=O)(=O)c1ccc(N)cc1		NL4-3	EC50	L10I L33I M36I M46I I54V K55R I62V L63P A71V G73S V82T L90M I93L	MT-4	p24 / luminescence	>1 µM
Cc1cc(C#CC2CC2)cc(C)c1Oc1ccnc(Nc2ccc(C#N)cc2)n1		IIIB	EC50	Y181C	MT-4	MTT	0.09 µM
CC(C)=CCN1Cc2cc(Cl)cc3[nH]c(=S)n(c23)C[C@@H]1C		MN	EC50		CEM + CEM-SS	cytopathic effect / MTT	0.124 µM
CCn1nc(Cc2cc(F)cc(F)c2)cc1C1CCN(C[C@H]2CN([C@@H](C(=O)O)C3CCCCC3)C[C@@H]2c2cccc(F)c2)CC1	50% human serum	BaL	EC50		HeLa	β-galactosidase	<0.011 µM
CCc1c(C(=O)c2cc(C)cc(C)c2)n(CC2CC=CC2)c(=O)[nH]c1=O		IIIB	EC50		CEMx174 + CEM	cytopathic effect / XTT	0.003 µM
Cc1cn([C@H]2C[C@H](N=[N+]=[N-])[C@@H](CO)O2)c(=O)[nH]c1=O		IIIB	EC50		MT-4	p24	0.03 µM
O=c1[nH]cnc2c1ncn2[C@H]1CC[C@@H](CO)O1		XM-ABC-resistant	EC50	RT-K65R L74V M184V Y115F	PBMC	p24	<38 µM
CCC[C@@]1(CCc2ccccc2)CC(O)=C([C@H](CC)c2cccc(NS(=O)(=O)c3ccc(C(F)(F)F)cn3)c2)C(=O)O1		NL4-3	EC90		MT-4	p24	0.07 µM
CC(C)(C)NC(=O)[C@@H]1CN(Cc2cccnc2)CCN1C[C@@H](O)C[C@@H](Cc1ccccc1)C(=O)N[C@H]1c2ccccc2C[C@H]1O		7324-1 NRTI resistant recombinant	EC50	RT-M41L D67N T69N K70R T215F K219E	PBMC	p24	0.0218 µM
CCc1c(Sc2ccccn2)n(COCc2ccccc2)c(=O)[nH]c1=O		IIIB	EC50	RT-Y181C	CEM + CEM-SS	cytopathic effect / XTT	3.5 µM
Cc1cc(C#Cc2ccccc2)cc(C)c1Oc1ccnc(Nc2ccc(C#N)cc2)n1		IIIB	EC50	E138K	MT-4	MTT	0.237 µM
CC[C@H](C)[C@H](C(=O)O)N1C[C@H](CN2CCC(c3cc(Cc4cccc(CN)c4)nn3CC)CC2)[C@@H](c2cccc(F)c2)C1		BaL	EC90		HeLa	β-galactosidase	0.0012 µM
Cc1cn([C@@H]2O[C@H](CO[Si](C)(C)C(C)(C)C)C3(OS(=O)(=O)C=C3N)[C@H]2O[Si](C)(C)C(C)(C)C)c(=O)n(C)c1=O		IIIB	EC50		CEM	syncytia	0.11 ± 0.08 µM
COC(=O)[C@H](C)NP(=O)(OC[C@@H]1C=C[C@H](n2cc(C)c(=O)[nH]c2=O)O1)Oc1ccc(Br)cc1		4755-5 NRTI resistant recombinant	EC50	RT-M41L E44D D67N T69D Y118I M184V L210W T215Y	PBMC	RT activity	0.0006 µM
CCCOc1ccc(Cc2cc(C3CCN(C[C@H]4CN([C@@H](C(=O)O)C(C)C)C[C@@H]4c4cccc(F)c4)CC3)n(CC)n2)cc1		BaL	EC90		HeLa	β-galactosidase	0.0037 µM
CC[C@H]1C(=O)Nc2ccc(F)cc2N1C(=O)OC(C)C		Y-1 (RT-K103N)	EC50	RT-K103N	CEM	cytopathic effect	0.051 µg/mL
CC(C)=CCN1c2cc(Cl)cc3[nH]c(=S)n(c23)C[C@@H]1C			EC50	RT-D67N K70R T215Y K219Q A98G	MT-4		<0.2 µM
COc1ccc(S(=O)(=O)N(CC(C)C)C[C@@H](O)[C@H](Cc2ccccc2)NC(=O)O[C@H]2CO[C@H]3OCC[C@H]32)cc1		Clinical isolate	EC50	PR-L10I K14R R41K M46L I54V L63P A71V V82A L90M I93L	PBMC	p24	0.005 µM
Cc1cn([C@H]2C[C@H](N=[N+]=[N-])[C@@H](CO)O2)c(=O)[nH]c1=O		6 clinical isolates AZT-resistant	EC90		PBMC	p24	1.6 µM
CC(C)CN(C[C@@H](O)[C@H](Cc1ccccc1)NC(=O)[C@@H](NC(=O)CNCc1cccc(F)c1)C(C)(C)C)S(=O)(=O)c1ccc(N)cc1		HXB2	EC50		MT-4	p24	<0.012 µM
Cc1cn([C@H]2C[C@H](N=[N+]=[N-])[C@@H](CO)O2)c(=O)[nH]c1=O		4XAZT+L100I (RT D67N K70R L100I T215Y K219Q)	EC50	RT-D67N K70R L100I T215Y K219Q	CEM + CEM-SS	cytopathic effect / XTT	0.02 µM
Cc1cn([C@H]2C[C@H](N=[N+]=[N-])[C@@H](CO)O2)c(=O)[nH]c1=O		NRTI resistant	EC50	RT-V75I F77L F116Y Q151M	HeLa	luciferase	0.72 µM
Cc1ccnc2c1NC(=O)c1cccnc1N2C1CC1		IIIB	EC50	RT-K103N	CEM	cytopathic effect	1.5 µg/mL
S=C(NCCc1cccs1)Nc1ccc(Br)cn1		G890-1 Clinical isolate NRTI-resistant	EC50	RT-K20R M41L D67N T69N K70R L210W T215Y	PBMC	p24	0.032 µM
CCn1nc(Cc2cc(C(F)(F)F)cc(C(F)(F)F)c2)cc1C1CCN(C[C@H]2CN([C@@H](C(=O)O)C(C)C)C[C@@H]2c2cccc(F)c2)CC1		BaL	EC90		HeLa	β-galactosidase	0.1 µM
CO[P@](=O)(c1cc(C)cc(/C=C/C#N)c1)c1c(C(N)=O)[nH]c2ccc(Cl)c(F)c12		IIIB	EC50		U-937		0.0005 µM
CCn1nc(Cc2ccc(OC(F)F)cc2)cc1C1CCN(C[C@H]2CN([C@@H](C(=O)O)C(C)(C)C)C[C@@H]2c2cccc(F)c2)CC1	50% human serum	BaL	EC50		HeLa	β-galactosidase	<0.011 µM
COC(=O)N[C@H](C(=O)N[C@@H](Cc1ccccc1)[C@@H](O)CN(Cc1ccc(-c2ccccn2)cc1)NC(=O)[C@@H](NC(=O)OC)C(C)(C)C)C(C)(C)C	clinical isolate, multidrug-resistant	Clinical isolate	EC50	L10I I15V K20R L24I M36I M46L I54V I62V L63P K70Q V82A L89M	PBMC	p24 / luminescence	0.039 µM
CCN[C@H]1CO[C@@H]2OCC[C@H](OC(=O)N[C@@H](Cc3cccc(OC)c3)[C@H](O)CN(CC(C)C)S(=O)(=O)c3ccc4nc(NC(C)C)sc4c3)[C@@H]21		NL4-3	EC50	L10I N37D G48V I54V L63P G73C I84V L90M	MT-4	p24 / luminescence	0.0049 µM
Cc1cc(C#Cc2cccc(N)c2)cc(C)c1Oc1ccnc(Nc2ccc(C#N)cc2)n1		IIIB	EC50	F227L + V106A	MT-4	MTT	0.594 µM
Nc1ccn([C@@H]2CS[C@H](CO)O2)c(=O)n1		LAI Laboratory isolate	EC50		PBMC	p24	0.021 µM
CN[C@H]1CO[C@@H]2OCC[C@H](OC(=O)N[C@@H](Cc3cccc(OC)c3)[C@H](O)CN(CC(C)C)S(=O)(=O)c3ccc4nc(NC(C)C)sc4c3)[C@@H]21		NL4-3	EC50		MT-4	p24 / luminescence	0.021 µM
CCCOc1ccc(Cc2cc(C3CCN(C[C@H]4CN([C@@H](C(=O)O)C(C)(C)C)C[C@@H]4c4cccc(F)c4)CC3)n(CC)n2)cc1	50% human serum	BaL	EC50		HeLa	β-galactosidase	<0.3 µM
N#Cc1cc2[nH]c3ccccc3c2n(-c2ccc([N+](=O)[O-])cc2)c1=O		NNRTI-resistant	EC50	RT-K103N Y188L	HeLa	luciferase	0.109 µM
CC(C)CN(C[C@@H](O)[C@H](Cc1ccccc1)NC(=O)[C@H](CC(N)=O)NC(=O)c1ccc2ccccc2n1)C(=O)NC(C)(C)C		NL4-3	EC50	PR-M46I V82T	MT-4	p24	<0.4 µM
CC(C)=CCN1Cc2cc(Cl)cc3[nH]c(=S)n(c23)C[C@@H]1C		HXB2	EC50	RT-M41L T215Y	HT4 + HT4 LacZ-1	plaque count	0.11 µM
Nc1ccn([C@H]2CC[C@@H](CO)O2)c(=O)n1		BCF08	EC50	RT-A98G Y181C	PBMC		0.06 µM
COC(=O)N[C@H](C(=O)N[C@@H](Cc1ccccc1)[C@@H](O)CN(Cc1ccc(-c2ccccn2)cc1)NC(=O)[C@@H](NC(=O)OC)C(C)(C)C)C(C)(C)C		NL4-3	EC50	L10F M46I I54V V82A	MT-4	p24 / luminescence	>1 µM
CC(C)CN(C[C@@H](O)[C@H](Cc1ccccc1)NC(=O)[C@@H](NC(=O)CNCc1cccc(F)c1)C(C)(C)C)S(=O)(=O)c1cccc(N)c1		RF	EC90		MT-2		0.0039 µM
CC(C)(C)NC(=O)[C@@H]1C[C@@H]2CCCC[C@@H]2CN1C[C@@H](O)[C@H](Cc1ccccc1)NC(=O)[C@H](CC(N)=O)NC(=O)c1ccc2ccccc2n1		Clinical isolate	EC50	PR-L10I K43T M46L I54L L63P A71T V82A L90M Q92K	PBMC	p24	0.31 µM
Cc1ccnc2c1NC(=O)c1cccnc1N2C1CC1		NL4-3	EC50	RT-L100I	CEM + CEM-SS	cytopathic effect / XTT	0.1 µM
Cc1cn([C@H]2C=C[C@@H](CO)O2)c(=O)[nH]c1=O		Recombinant	EC50	RT-V118I M184V	HeLa	luciferase	1.59 µM
CCn1nc(Cc2ccc(C(C)C)cc2)cc1C1CCN(C[C@H]2CN([C@@H](C(=O)O)C(C)(C)C)C[C@@H]2c2cccc(F)c2)CC1	50% human serum	BaL	EC90		HeLa	β-galactosidase	0.033 µM
Cc1ccnc2c1NC(=O)c1cccnc1N2C1CC1		Q-1 (RT T139K Y181C Y188D/Y)	EC50	RT-T139K Y181C Y188D/Y	CEM	cytopathic effect	≥4 µg/mL
CN1N=C(N)c2cn([C@@H]3O[C@H](COP(=O)(O)O)[C@@H](O)[C@H]3O)c3ncnc1c23			EC50		H9	p24	0.03 µM
CC(=O)c1ccc(C)cc1NC(C(N)=O)c1c(Cl)cccc1Cl		IIIB	EC50	RT-K103N	MAGI	MTT	3.8 µM
O=c1[nH]cnc2c1ncn2[C@H]1CC[C@@H](CO)O1		LAI	EC50		PBMC		0.85 µM
CCn1nc(Cc2ccc3c(c2)OCO3)cc1C1CCN(C[C@H]2CN([C@@H](C(=O)O)C(C)(C)C)C[C@@H]2c2cccc(F)c2)CC1	50% human serum	BaL	EC50		HeLa	β-galactosidase	<0.033 µM
Cc1ccc(-c2ccc3c(c2)C=C(C(=O)Nc2ccc(C[N+](C)(C)C4CCOCC4)cc2)CCC3)cc1		JR-FL R5	EC50		PBMC	antigen	0.003 µg/mL
C#C[C@@]1(CO)C=C[C@H](n2cc(C)c(=O)[nH]c2=O)O1		A012B WT	EC50		MAGI (CCR5) + MAGI	β-galactosidase	0.49 µM
Cc1cn([C@H]2C[C@H](N=[N+]=[N-])[C@@H](CO)O2)c(=O)[nH]c1=O		XM-AZT-resistant	EC50	RT-M41L D67N K70R T215Y K219Q	PBMC	p24	<6.7 µM
O=c1[nH]cnc2c1ncn2[C@H]1CC[C@@H](CO)O1		IIIB	EC50		H9	p24	0.08 µM
Cc1cc(C#Cc2ccccc2N)cc(C)c1Oc1ccnc(Nc2ccc(C#N)cc2)n1		IIIB	EC50		MT-4	MTT	0.046 µM
CCn1nc(Cc2ccc(O)cc2)cc1C1CCN(C[C@H]2CN([C@@H](C(=O)O)C(C)(C)C)C[C@@H]2c2cccc(F)c2)CC1	50% human serum	BaL	EC90		HeLa	β-galactosidase	0.011 µM
Cc1cn([C@H]2C[C@H](N=[N+]=[N-])[C@@H](CO)O2)c(=O)[nH]c1=O		7324-1 NRTI resistant recombinant	EC50	RT-M41L D67N T69N K70R T215F K219E	PBMC	p24	>1 µM
CN[C@H]1CO[C@@H]2OCC[C@H](OC(=O)N[C@@H](Cc3ccccc3)[C@H](O)CN(CC(C)C)S(=O)(=O)c3ccc4nc(NC5CC5)sc4c3)[C@@H]21		NL4-3	EC50	L10F L33I M36I M46I I54V K55R I62V L63P A71V G73S V82T	MT-4	p24 / luminescence	0.0029 µM
CC(C)(C)NC(=O)[C@@H]1C[C@@H]2CCCC[C@@H]2CN1C[C@@H](O)[C@H](Cc1ccccc1)NC(=O)[C@H](CC(N)=O)NC(=O)c1ccc2ccccc2n1		BCF08	EC50	PR-L10V K20C M36I L63T I64V A71V	PBMC		0.0164 µM
CC(C)=CCOc1cc(NC(=S)c2ccoc2C)ccc1Cl		IIIB	EC50	RT-V179D	CEM	syncytia	0.006 ± 0.04 µM
Cc1cc(S(N)(=O)=O)ccc1NC(=O)COc1ccc(Cl)cc1C(=O)c1cc(Cl)cc(C#N)c1		NNRTI-resistant (RT V108I)	EC50	RT-V108I	MAGI	β-galactosidase	0.0009 µM
Cc1cccc(C)c1OCC(=O)N[C@@H](Cc1ccccc1)[C@@H](O)C[C@H](Cc1ccccc1)NC(=O)[C@H](C(C)C)N1CCCNC1=O		LAI	EC50		MT-2	MTT	0.032 µM

An empty or dashed field is not shown. ECn: concentration that inhibits the pathogen or its effect by n%.